This note sets out measurements from PubChem BioAssay AID1259374 (The Scripps Research Institute Molecular Screening Center, 2018).

By UniProt entry, the sequences of proteins in these tests, tags left out. Where a name states a change or a piece, a line headed by the entry shows the natural chain unless it says otherwise.
UniProt O75030: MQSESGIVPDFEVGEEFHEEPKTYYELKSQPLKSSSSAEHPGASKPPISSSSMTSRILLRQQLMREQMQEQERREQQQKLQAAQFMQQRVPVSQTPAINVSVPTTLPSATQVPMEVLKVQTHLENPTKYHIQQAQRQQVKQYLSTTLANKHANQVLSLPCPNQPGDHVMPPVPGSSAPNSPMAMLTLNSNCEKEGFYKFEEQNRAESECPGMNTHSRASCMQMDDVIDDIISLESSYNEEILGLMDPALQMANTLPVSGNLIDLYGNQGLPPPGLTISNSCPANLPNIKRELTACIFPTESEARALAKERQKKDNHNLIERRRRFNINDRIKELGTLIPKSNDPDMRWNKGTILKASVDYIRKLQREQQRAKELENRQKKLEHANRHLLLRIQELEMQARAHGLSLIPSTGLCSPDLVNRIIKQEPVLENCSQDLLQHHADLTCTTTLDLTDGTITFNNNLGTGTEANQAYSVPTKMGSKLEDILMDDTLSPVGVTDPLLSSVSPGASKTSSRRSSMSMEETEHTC

This is a selection; strong and weak results do not stand in their true shares. Calls of active or inactive are those of the source. Rule as the data show it: active = inhibition above about 50%; inactive = the rest.

The target in the assay is Microphthalmia-associated transcription factor (Homo sapiens) (UniProt O75030). Briefly: MITF inhibitors, primary screen, biochemical, AlphaScreen, human (AID 1259374).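 Also: 0% = vehicle wells with protein.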 The following applies: AlphaScreen MITF homodimerization, bead proximity signal; at 2.6 µM; active compounds read high.
Turning to `O=C(O)Cc1ccc(N(CCCl)CCCl)cc1`, the inhibition is inactive: 0.59%.
